Anti-infective test results gathered from many reports (values: NIAID ChemDB through PubChem).

Common to all: tests on isolated targets; agent: HIV-1; protein: Reverse transcriptase

ICn: concentration for n% inhibition. Lines come from different laboratories, so protocols vary. Blank or dashed fields: not listed here.

compound	endpoint	strain	changes	method	result
O=C(OCC1O[C@@H](O)C(O)(COC(=O)c2cc(O)c(O)c(O)c2)C1O)c1cc(O)c(O)c(O)c1	IC50	-	-	nucleotide incorporation	>20 µg/mL
N#Cc1ccc(Nc2nccc(Oc3cc4c(cc3Br)c(=O)c(C(=O)O)cn4C3CCCCC3)n2)cc1	IC50	-	-	RT activity / fluorescence	3.44 µM
Cc1ccc(CN2C(=O)CSC2c2c(F)cccc2F)o1	IC50	-	-	ELISA	>10 µg/mL
O=C(OCC1O[C@@H](O)C(O)(COC(=O)c2cc(O)c(O)c(O)c2)C1OC(=O)c1cc(O)c(O)c(O)c1)c1cc(O)c(O)c(O)c1	IC50	-	-	nucleotide incorporation	>20 µg/mL
Fc1ccc(CCNC(=S)Nc2ccc(Br)cn2)cc1	Ki	-	-	scintillation proximity	7.8 µM
Cc1cccc(N2C(=O)CSC2c2ccc(N(C)C)cc2)n1	IC50	-	-	ELISA	>10 µg/mL
Cc1cn([C@H]2CC[C@@H](COP(=O)(O)OP(=O)(O)OP(=O)(O)O)O2)c(=O)[nH]c1=O	IC50	-	-	nucleotide incorporation	0.024 µM
O=C1CSC2(CCCCC2)N1Cc1ccco1	IC50	-	-	ELISA	>10 µg/mL
O=C1CC2OC(O)C3OC(=O)c4cc(O)c(O)c(O)c4-c4c(cc(O)c(O)c4O)C(=O)OC3C2OC(=O)c2cc(O)c(O)c(O)c2-c2c1cc(O)c(O)c2O	IC50	-	-	nucleotide incorporation	>20 µg/mL
CCN1c2ncc(COc3ccncc3)cc2C(=O)N(C)c2ccc(Cl)nc21	IC50	-	RT-Y181C	nucleotide incorporation / radiometric	<1 µM
O=C1OCC2OC(=O)c3cc(O)c(O)c(O)c3-c3c(O)c(O)c(O)c4c3C(=O)OC(C2OC(=O)c2cc(O)c(O)c(O)c2-c2c1cc(O)c(O)c2O)C1OC(=O)c2c-4c(O)c(O)c(O)c2C1c1c(O)cc(O)c2c1O[C@H](c1ccc(O)c(O)c1)C(O)C2	IC50	-	-	nucleotide incorporation	>20 µg/mL
N#Cc1ccc(Nc2nccc(Oc3cc4c(cc3Br)c(=O)c(C(=O)O)cn4C3CCCC3)n2)cc1	IC50	-	-	RT activity / fluorescence	2.81 µM
CCN1c2ncc(CCc3ccccc3)cc2C(=O)N(C)c2cccnc21	IC50	-	RT-Y181C	nucleotide incorporation / radiometric	<1 µM
Cc1c(-c2cnccn2)ssc1=S	IC50	IIIB	-	fluorescence	~38 µM
CCN1c2ncc(COc3cccc4[nH]ccc34)cc2C(=O)N(C)c2ccc(Cl)nc21	IC50	-	RT-Y181C	nucleotide incorporation / radiometric	<1 µM
O=C(O[C@@H]1O[C@@H]2COC(=O)c3cc(O)c(O)c(O)c3-c3c(cc(O)c(O)c3O)C(=O)O[C@H]([C@H]1OC(=O)c1cc(O)c(O)c(O)c1)[C@@H]2OC(=O)c1cc(O)c(O)c(O)c1)c1cc(O)c(O)c(O)c1	IC50	-	-	nucleotide incorporation	>20 µg/mL
COc1ccc(CCNC(=S)Nc2ccc(Br)cn2)cc1	Ki	-	-	scintillation proximity	1.2 µM
CCC(C)n1cc(C(=O)O)c(=O)c2cc(Br)c(Oc3ccnc(Nc4ccc(C#N)cc4)n3)cc21	IC50	-	-	RT activity / fluorescence	2.75 µM
O=C1OCC2OC(=O)c3cc(O)c(O)c(O)c3-c3c(O)c(O)c(O)c4c3C(=O)OC(C2OC(=O)c2cc(O)c(O)c(O)c2-c2c1cc(O)c(O)c2O)C1OC(=O)C2C4=C(O)C(=O)C23Oc2cc(O)c4c(c2C13)O[C@H](c1ccc(O)c(O)c1)C(O)C4	IC50	-	-	nucleotide incorporation	>20 µg/mL
COC(=O)c1cn(C)c2cc(Oc3ccnc(Nc4ccc(C#N)cc4)n3)c(Br)cc2c1=O	IC50	-	-	RT activity / fluorescence	0.59 µM
CCN1c2ncc(CSc3ncnc4[nH]ncc34)cc2C(=O)N(C)c2ccc(Cl)nc21	IC50	WT	-	nucleotide incorporation / radiometric	<1 µM
Nc1nc2c(ncn2[C@H]2CC[C@@H](COP(=O)(O)OP(=O)(O)OP(=O)(O)O)O2)c(=O)[nH]1	IC50	-	-	-	0.074 µM
CCN1c2ncc(CS(=O)(=O)c3ccccc3)cc2C(=O)N(C)c2ccc(Cl)nc21	IC50	-	RT-Y181C	nucleotide incorporation / radiometric	<1 µM
O=C(O[C@@H]1OC2CC(=O)c3cc(O)c(O)c(O)c3-c3c(cc(O)c(O)c3O)C(=O)OC2C(O)C1O)c1cc(O)c(O)c(O)c1	IC50	-	-	nucleotide incorporation	<20 µg/mL
CCn1cc(C(=O)O)c(=O)c2cc(Br)c(Oc3ccnc(Nc4ccc(C#N)cc4)n3)cc21	IC50	-	-	RT activity / fluorescence	0.41 µM
CCN1c2ncc(/C=C\c3ccccc3)cc2C(=O)N(C)c2cccnc21	IC50	-	RT-Y181C	nucleotide incorporation / radiometric	<1 µM
CCCN(C)c1nc([C@@H](C)c2c(F)cccc2F)c(C)c(=O)[nH]1	IC50	-	Y188L	RT activity	>20 µM

3 of the rows above, restated:

compound,endpoint,strain,changes,method,result
O=C1OCC2OC(=O)c3cc(O)c(O)c(O)c3-c3c(O)c(O)c(O)c4c3C(=O)OC(C2OC(=O)c2cc(O)c(O)c(O)c2-c2c1cc(O)c(O)c2O)C1OC(=O)C2C4=C(O)C(=O)C23Oc2cc(O)c4c(c2C13)O[C@H](c1ccc(O)c(O)c1)C(O)C4,IC50,-,-,nucleotide incorporation,>20 µg/mL
O=C1OCC2OC(=O)c3cc(O)c(O)c(O)c3-c3c(O)c(O)c(O)c4c3C(=O)OC(C2OC(=O)c2cc(O)c(O)c(O)c2-c2c1cc(O)c(O)c2O)C1OC(=O)c2c-4c(O)c(O)c(O)c2C1c1c(O)cc(O)c2c1O[C@H](c1ccc(O)c(O)c1)C(O)C2,IC50,-,-,nucleotide incorporation,>20 µg/mL
O=C(O[C@@H]1O[C@@H]2COC(=O)c3cc(O)c(O)c(O)c3-c3c(cc(O)c(O)c3O)C(=O)O[C@H]([C@H]1OC(=O)c1cc(O)c(O)c(O)c1)[C@@H]2OC(=O)c1cc(O)c(O)c(O)c1)c1cc(O)c(O)c(O)c1,IC50,-,-,nucleotide incorporation,>20 µg/mL